Pooled drug test results. Numbers come from NIAID ChemDB, via PubChem.

Shared fields: whole-cell or culture tests; agent: Candida albicans; method: agar diffusion; endpoint: zone

Zone: diameter of growth inhibition. Lines come from different laboratories, so protocols vary. Blank or dashed fields: not listed here.

structure	dose	strain or isolate	value
CC1(C)CCC2=C(C1=O)C(c1cccc(C3C4=C(CCC(C)(C)C4=O)OC4=C3C(=O)C(C)(C)CC4)c1)C1=C(CCC(C)(C)C1=O)O2	140 µg/disc	ATCC 10231	9 mm
CS(=O)(=O)c1nc(N)c(C#N)c(-c2ccccc2[N+](=O)[O-])n1	100 µg/mL	MTCC 227	20 mm
O=C1CCCC2=C1C(c1ccc(C3C4=C(CCCC4=O)OC4=C3C(=O)CCC4)cc1)C1=C(CCCC1=O)O2	140 µg/disc	ATCC 10231	8 mm
C[C@H]1[C@H](O)[C@@H](C)/C=C/C=C/C=C/C=C/C=C/C=C/C=C/[C@H](O[C@@H]2O[C@H](C)[C@@H](O)[C@H](N)[C@@H]2O)C[C@@H]2O[C@](O)(C[C@@H](O)C[C@@H](O)CC[C@H](O)[C@@H](O)C[C@@H](O)CC(=O)O[C@H]1C)C[C@H](O)[C@H]2C(=O)O	100 µg/disc	Ca1	25 mm
COc1ccccc1/C=c1\c(=O)[nH][nH]\c1=C1/C(=O)c2ccccc2N(C)C1=O	1 mg/mL	ATCC 10231	13 mm
CSC1=NC(c2ccccc2Cl)C(C#N)=C(N)N1	100 µg/mL	MTCC 227	20 mm
O=C1CSC(c2ccccc2Cl)N1Nc1nc2ccccc2n2nnnc12	50 µg/mL	ATCC 2091	10 mm
CS(=O)(=O)C1=NC(c2cccc3cc4ccccc4cc23)C(C#N)=C(N)N1	25 µg/mL	MTCC 227	17 mm
Cn1c(=O)c(-c2[nH][nH]c(=O)c2N=Nc2ccc(Cl)cc2)c(O)c2ccccc21	1 mg/mL	ATCC 10231	12 mm
CSC1=NC(c2ccccc2[N+](=O)[O-])C(C#N)=C(N)N1	100 µg/mL	MTCC 227	20 mm
Fc1ccc(/C=N/n2c(C34CC5CC(CC(C5)C3)C4)n[nH]c2=S)cc1	200 µg/disc	IFO 3007	17 mm
O=C1CSC(c2ccc([N+](=O)[O-])cc2)N1Nc1nc2ccccc2n2nnnc12	100 µg/mL	ATCC 2091	13 mm
Cc1ccc(-c2csc(NS(=O)(=O)C3C(=O)ONN3c3ccc(C)cc3)n2)cc1	250 µg/mL	MTCC 227	17 mm
CSC1=NC(c2ccc(O)cc2)C(C#N)=C(N)N1	50 µg/mL	MTCC 227	18 mm
Fc1ccc(N2CCN(Cn3nc(C45CC6CC(CC(C6)C4)C5)n(/N=C/c4c(F)cccc4F)c3=S)CC2)cc1	200 µg/disc	IFO 3007	<10 mm
CN1C(=O)/C(=c2/[nH][nH]c(=O)/c2=C\c2ccc(N)cc2)C(=O)c2ccccc21	1 mg/mL	ATCC 10231	0 mm
COc1ccc(C2CC(=O)C3=C(C2)OC2=C(C(=O)CC(c4ccc(OC)c(OC)c4)C2)C3c2ccc(C3C4=C(CC(c5ccc(OC)c(OC)c5)CC4=O)OC4=C3C(=O)CC(c3ccc(OC)c(OC)c3)C4)cc2)cc1OC	40 µg/disc	ATCC 10231	7 mm
COc1ccc(-c2nc3ccccc3c(=O)n2-c2ccc(NS(=O)(=O)C3C(=O)ONN3c3ccc(C)cc3)cc2)cc1[N+](=O)[O-]	250 µg/mL	MTCC 227	22 mm
S=c1[nH]nc(C23CC4CC(CC(C4)C2)C3)n1/N=C/c1ccc(Cl)cc1	200 µg/disc	IFO 3007	<10 mm
CC1=C(Cl)C(O)=CC(=O)C12Oc1cc(O)c(Cl)c(C)c1C2=O	100 µg/mL	MTCC 227	25 mm
O=C1CSC(c2ccc(Cl)cc2)N1Nc1nc2ccccc2n2nnnc12	100 µg/mL	ATCC 2091	12 mm
CC1(C)CC(=O)C2=C(C1)OC1=C(C(=O)CC(C)(C)C1)C2c1ccc(C2C3=C(CC(C)(C)CC3=O)OC3=C2C(=O)CC(C)(C)C3)cc1	20 µg/disc	ATCC 10231	0 mm
Cc1ccc(C(C)C)c(O)c1	100 µg/mL	CN	6 mm
CCOC(=O)C1CCN(Cn2nc(C34CC5CC(CC(C5)C3)C4)n(/N=C/c3ccccc3)c2=S)CC1	200 µg/disc	IFO 3007	<10 mm
CS(=O)(=O)c1nc(N)c(C#N)c(-c2cccc([N+](=O)[O-])c2)n1	50 µg/mL	MTCC 227	17 mm
O=C1CSC(c2ccc(C(F)(F)F)cc2)N1Nc1nc2ccccc2n2nnnc12	100 µg/mL	ATCC 2091	10 mm
COc1ccc(-c2nc3ccccc3c(=O)n2-c2ccc(NS(=O)(=O)C3C(=O)ONN3c3ccc(C)cc3)cc2)cc1	250 µg/mL	MTCC 227	22 mm
COc1ccc(C2SCC(=O)N2Nc2nc3ccccc3n3nnnc23)cc1	100 µg/mL	ATCC 2091	10 mm
Cc1ccc(N2NOC(=O)C2S(=O)(=O)Nc2ccc(-n3c(-c4cccc(Br)c4)nc4ccccc4c3=O)cc2)cc1	250 µg/mL	MTCC 227	22 mm
O=C1C(Cl)C(c2ccccc2Cl)N1Nc1nc2ccccc2n2nnnc12	50 µg/mL	ATCC 2091	9 mm
C/C=C/C1=CC2=CC(=O)[C@](C)(OC(=O)c3c(C)cc(O)cc3OC)C(=O)C2=CO1	25 µg/disc	ATCC 64548	0 mm
O=C1CSC(c2ccccc2[N+](=O)[O-])N1Nc1nc2ccccc2n2nnnc12	50 µg/mL	ATCC 2091	7 mm
Cc1ccc(/C=c2\c(=O)[nH][nH]\c2=C2/C(=O)c3ccccc3N(C)C2=O)cc1	1 mg/mL	ATCC 10231	6 mm
CC1/C(=N\O)C(=O)NCCCOc2c(O)cc(c(Br)c2Br)C/C2=N\O[C@@H]3[C@H](Br)[C@@]4(C=C[C@@]3(O)C/C(=N\O)C(=O)NC[C@@H](O)[C@@H](O)[C@H](O)CNC2=O)Oc2cc1cc(Br)c2O4	50 µg/disc	-	9 mm
O=C1C(Cl)C(c2ccc(F)cc2)N1Nc1nc2ccccc2n2nnnc12	50 µg/mL	ATCC 2091	7 mm

The last 4 rows once more:

structure | dose | strain or isolate | value
O=C1CSC(c2ccccc2[N+](=O)[O-])N1Nc1nc2ccccc2n2nnnc12 | 50 µg/mL | ATCC 2091 | 7 mm
Cc1ccc(/C=c2\c(=O)[nH][nH]\c2=C2/C(=O)c3ccccc3N(C)C2=O)cc1 | 1 mg/mL | ATCC 10231 | 6 mm
CC1/C(=N\O)C(=O)NCCCOc2c(O)cc(c(Br)c2Br)C/C2=N\O[C@@H]3[C@H](Br)[C@@]4(C=C[C@@]3(O)C/C(=N\O)C(=O)NC[C@@H](O)[C@@H](O)[C@H](O)CNC2=O)Oc2cc1cc(Br)c2O4 | 50 µg/disc | - | 9 mm
O=C1C(Cl)C(c2ccc(F)cc2)N1Nc1nc2ccccc2n2nnnc12 | 50 µg/mL | ATCC 2091 | 7 mm